According to article PMC4488513:
Construct, isoform or probe ends are uncertain for at least one entry. For part of these data: At least one verdict was read from the data and is not stated in words by the source.

Key:
Assay in all cases: EMSA
[1] = biological target: rCmeR-R C69S,C166S,P183R (Campylobacter jejuni (mutation of isolate CT9:7)) (UniProt Q7B8P6); conditions: 60-180 ng protein, similar to rCmeRSS; recombinant protein; residues 1-210; protein details: N-terminal 6xHis (pQE30); label: DIG-11-ddUTP 3' end; probe letters rebuilt from the primers and the genome
[2] = biological target: rCmeRSS C69S,C166S (Campylobacter jejuni) (UniProt Q7B8P6); conditions: 60-180 ng protein, 0.05 pmol probe; recombinant protein; residues 1-210; protein details: N-terminal 6xHis (pQE30); label: DIG-11-ddUTP 3' end; probe letters rebuilt from the primers and the genome
[3] = biological target: rCmeR-IK C69S,C166S,T6I,E159K (Campylobacter jejuni (mutations of isolate M63885)) (UniProt Q7B8P6); conditions: 60-180 ng protein, similar to rCmeRSS; recombinant protein; residues 1-210; protein details: N-terminal 6xHis (pQE30); label: DIG-11-ddUTP 3' end; probe letters rebuilt from the primers and the genome

Measured: binding result

GCACAACACCTAAAGCTAAAATAGTATTTTTTTGAAATAATTTCATGGTTTTGCCTTGAAAAATTAAATTAAAAATTGTAATTTTTATTACAAAAATTTTTGGCTAATTATATCTTAATTTTGGTTAATAAAATTATTTTTTAAGCTTTGGAGCTATTGATTCCATTTAG (double strand) [11168 cmeABC promoter]
binds: [1] | [2] | [3]
